Measured values from several laboratories, pooled; numbers as filed in NIAID ChemDB.

Common to all: growth or infection tests; organism: HIV-1; read by: p24; measure: EC95

ECn: concentration that inhibits the pathogen or its effect by n%.

SMILES,changes,strain or isolate,cells,value
CC(=O)N1CCn2c(nc(C(=O)NCc3ccc(F)cc3)c(O)c2=O)C1,,,MT-4,<50 µM
CC(C)NC(=O)c1[nH]c(=O)c(O)c2c1CCN(Cc1ccc(F)cc1)C2=O,,,MT-4,≤10 µM
Cc1ccc(-n2nnnc2SCC(=O)Nc2ccccc2Cl)c([N+](=O)[O-])c1,,,MT-4,<10 µM
O=C1Nc2ccc(Cl)cc2[C@](C#Cc2ccccc2)(C(F)(F)F)O1,,IIIB,MT-4,>0.2 µM
N#Cc1cc(Cl)cc(Oc2cc(OCc3[nH]nc4nc(N5CCOCC5)ccc34)ccc2Cl)c1,,,MT-4,<20 µM
CC(C)[C@H](NC(=O)OCc1ccccn1)C(=O)N[C@@H](Cc1ccccc1)[C@@H](O)C[C@H](Cc1ccccc1)NC(=O)OCc1cccnc1,PR-L63P V82T,NL4-3,MT-4,1.5 µM
Cc1cc(C)c(-n2nnnc2SCC(=O)Nc2ccc(Br)cc2F)c(C)c1,,,MT-4,<10 µM
C[C@@H]1O[C@H](CO)O[C@@H]1n1cnc2c(N)ncnc21,,,MT-4,>10 µM
NS(=O)(=O)c1ccc(NC(=O)COc2cccc(Oc3ccccc3)c2)c(Cl)c1,,,MT-4,<20 µM
O=C1c2c(O)c(=O)n(C3CCS(=O)(=O)CC3)c(=O)n2CCN1Cc1ccc(F)cc1,,,MT-4,<10 µM
O=C1c2c(O)c3n(c2CCN1Cc1ccc(F)cc1)CCN(Cc1ccc(F)cc1)C3=O,,,MT-4,≤10 µM
CN(C[C@@H](CCN1CCC(CCCc2ccccc2)CC1)c1cccc(Cl)c1)S(=O)(=O)c1ccccc1,,YU2,PBMC,50 µM
O=C(O)c1[nH]c(=O)c(O)c2c1CCN(Cc1ccc(F)cc1)C2=O,,,MT-4,≤10 µM
CC(C)(CN1CCOCC1)Cn1c(=O)c(O)c2n(c1=O)CCN(Cc1ccc(F)cc1)C2=O,,,MT-4,<10 µM
CN(c1[nH]c(=O)c(O)c2c1CCN(Cc1ccc(F)cc1)C2=O)S(C)(=O)=O,,,MT-4,≤10 µM
O=C1c2c(O)c(=O)n(C3CCCC3)c(=O)n2CCN1Cc1ccc(F)cc1,,,MT-4,<10 µM
Cc1cc(OCCN(C)C)ccc1NC(=O)COc1ccc(Cl)c(Oc2cc(Cl)cc(C#N)c2)c1,,,MT-4,<20 µM
Cn1c(=O)c(O)c2n(c1=O)CCN(Cc1ccc(F)cc1)C2=O,,,MT-4,<10 µM
CC(=O)c1ccc(NC(=O)CSc2nnnn2-c2c(C)cc(C)cc2C)cc1,,,MT-4,<10 µM
O=C1c2c(O)c(=O)n([C@@H]3C[C@H]3c3ccccc3)c(=O)n2CCN1Cc1ccc(F)cc1,,,MT-4,<10 µM
CC(=O)N(CC(C)C)C1CN(C)CCn2c1nc(C(=O)NCc1ccc(F)cc1)c(O)c2=O,,,MT-4,<1 µM
N#Cc1cc(Cl)cc(Oc2cc(F)c(Cl)c(OCc3[nH]nc4ncccc34)c2)c1,,,MT-4,<20 µM
CC(C)n1c(C(=O)N(C)C)c2c(c(O)c1=O)C(=O)N(Cc1ccc(F)c(Cl)c1)CC2,,,MT-4,≤10 µM
C[C@H]1O[C@@H](CO)O[C@@H]1n1cnc2c(N)nc(N)nc21,,,MT-4,>10 µM
CCNC(=O)c1cc(F)ccc1CNC(=O)c1nc(N2CCCCS2(=O)=O)c2cccnc2c1O,,,MT-4,<5 µM
Cn1ccc(CN2CCn3c(nc(C(=O)NCc4ccc(F)cc4)c(O)c3=O)C23CC3)n1,,,MT-4,<1 µM
C[C@@H]1O[C@H](CO)O[C@H]1n1cnc2c(=O)[nH]c(N)nc21,,,MT-4,>10 µM
O=C1c2c(O)c(=O)n(C3CCS(=O)(=O)c4ccccc43)c(=O)n2CCN1Cc1ccc(F)cc1,,,MT-4,<10 µM
CCS(=O)(=O)N(C)c1nc(C(=O)NCc2ccc(F)cc2C(=O)NC)c(O)c2ncccc12,,,MT-4,<5 µM
Cc1cc(C)c(-n2nnnc2OCC(=O)Nc2ccccc2[N+](=O)[O-])c(C)c1,,,MT-4,<10 µM
Nc1nccc2c1ncn2[C@@H]1O[C@H](CO)[C@@H](O)[C@H]1O,,,MT-2,>20 µM
O=C(NCc1ccc(F)cc1)c1nc2n(c(=O)c1O)CCOCC2,,,MT-4,<50 µM
CC(C)NC(=O)c1cc(F)ccc1CNC(=O)c1nc(N2CCCCS2(=O)=O)c2cccnc2c1O,,,MT-4,<5 µM
CC1(C)c2nc(C(=O)NCc3ccc(F)cc3)c(O)c(=O)n2CCN1Cc1ccccn1,,,MT-4,<1 µM
CS(=O)(=O)c1ccc(NC(=O)COc2cc(Cl)cc(Oc3cc(Cl)cc(C#N)c3)c2)c(Cl)c1,,,MT-4,<20 µM
CC(C)n1c(=O)c(O)c2n(c1=O)CCN(Cc1ccc3ccccc3c1)C2=O,,,MT-4,<10 µM
CN(C)C(=O)c1c2c(c(O)c(=O)n1C)C(=O)N(Cc1ccc(F)cc1)CC2,,,MT-4,≤10 µM
N#Cc1cc(Cl)cc(Oc2cc(OCc3[nH]nc4nc(N5CC(CN)C5)ccc34)ccc2Cl)c1,,,MT-4,<20 µM
O=C(NCc1ccc(F)cc1)c1nc2n(c(=O)c1O)CN1CCSC21,,,MT-4,<50 µM
CC(=O)N(C)c1c2c(c(O)c(=O)n1C)C(=O)N(Cc1ccc(F)cc1)CC2,,,MT-4,≤10 µM
CN1CCn2c(nc(C(=O)NCc3ccc(F)cc3)c(O)c2=O)C(NCc2ccccc2)C1,,,MT-4,<50 µM
CN(C)C(=O)c1[nH]c(=O)c(O)c2c1CCN(Cc1ccc(F)cc1)C2=O,,,MT-4,≤10 µM
CN1CCn2c(nc(C(=O)NCc3ccc(F)cc3)c(O)c2=O)C(N(CC2CCCCC2)C(=O)C(=O)N(C)C)C1,,,MT-4,<1 µM
CCN(CC)C(=O)c1[nH]c(=O)c(O)c2c1CCN(Cc1ccc(F)cc1)C2=O,,,MT-4,≤10 µM
CN(C)C(=O)CC1Cn2c(c(O)c(=O)n(C3CCCC3)c2=O)C(=O)N1Cc1ccc(F)cc1,,,MT-4,<10 µM

The last 4 rows once more:

SMILES,changes,strain or isolate,cells,value
CN(C)C(=O)c1[nH]c(=O)c(O)c2c1CCN(Cc1ccc(F)cc1)C2=O,,,MT-4,≤10 µM
CN1CCn2c(nc(C(=O)NCc3ccc(F)cc3)c(O)c2=O)C(N(CC2CCCCC2)C(=O)C(=O)N(C)C)C1,,,MT-4,<1 µM
CCN(CC)C(=O)c1[nH]c(=O)c(O)c2c1CCN(Cc1ccc(F)cc1)C2=O,,,MT-4,≤10 µM
CN(C)C(=O)CC1Cn2c(c(O)c(=O)n(C3CCCC3)c2=O)C(=O)N1Cc1ccc(F)cc1,,,MT-4,<10 µM

Lines come from different laboratories, so protocols vary. Blank or dashed fields: not listed here.